In publication PMC5817196, “DprA from Neisseria meningitidis: properties and role in natural competence for transformation” (Microbiology, 2017):
The exact form of at least one protein or probe is not confirmed. For some of these results: A weaker result is weaker than the reference pair of the same experiment. Protein sequences can lack the tags named with them. At least one verdict was read from the data and is not stated in words by the source.

What was measured:
[1] = target: T1, DprA (DprANm) (Neisseria meningitidis MC58) (UniProt Q9K1K1); test: competition with a labelled probe; settings: 30 nM DprA, complex less stable above ~15 nM DNA, EMSA: 40 mM Tris-HCl pH 8, 2.5 mM EDTA, 2 mM MgCl2, 6% glycerol, 1 mM DTT, 30 min on ice, 5% native PAGE at 4 °C, recombinant protein, protein details: N-terminal 6xHis (pET28b, cleavable), single-stranded DNA
T1 sequence (looked up, limits assumed): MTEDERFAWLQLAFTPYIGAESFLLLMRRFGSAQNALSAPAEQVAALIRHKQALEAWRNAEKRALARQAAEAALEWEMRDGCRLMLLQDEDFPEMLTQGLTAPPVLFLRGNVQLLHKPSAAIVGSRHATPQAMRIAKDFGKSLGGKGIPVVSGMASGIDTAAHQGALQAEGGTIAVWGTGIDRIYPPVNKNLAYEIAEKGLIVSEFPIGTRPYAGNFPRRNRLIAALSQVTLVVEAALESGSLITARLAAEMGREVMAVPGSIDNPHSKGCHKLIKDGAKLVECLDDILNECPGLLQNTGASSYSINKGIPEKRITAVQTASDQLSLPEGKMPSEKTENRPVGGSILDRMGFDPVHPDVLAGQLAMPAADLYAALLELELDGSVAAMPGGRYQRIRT

[2] = target: T1, DprA (DprANm) (Neisseria meningitidis MC58); test: EMSA; settings: EMSA: 40 mM Tris-HCl pH 8, 2.5 mM EDTA, 2 mM MgCl2, 6% glycerol, 1 mM DTT, 30 min on ice, 5% native PAGE at 4 °C, recombinant protein, protein details: N-terminal 6xHis (pET28b, cleavable)

## GCCGTCTGAAAGCTCTAGGCCGTCTGAAACGTCAGGCCGTCTGAAAGCTCTAGGCCGTCTGAAACGTCAGGCCGTCTGAA [GTB25 (unlabelled competitor)]
[1]; hot GTB25 (self-competition)
  binding result: binds

## GCTGATCAACCCTACATGTGTAGGTAACCCTAACCCTAACCCTAAGGACAACCCTAGTGAAGCTTGTAACCCTAGGAGCT [C80 (unlabelled competitor)]
[1]; hot C80 (self-competition)
  binding result: binds

## TTTTTTTTTTTTTTTTTTTTTTTTTTTTTTTTTTTTTTTTTTTTTTTTTTTTTTTTTTTTTTTTTTTTTTTTTTTTTTTTTTTTTTTTTTTTTTTTTTTT [dT100]
[2]; 30 nM DprA, affinity increases with length, label: 32P, single-stranded DNA
  binding result: binds

## GCTGATCAACCCTACATGTGTAGGTAACCCTAACCCTAACCCTAAGGACAACCCTAGTGAAGCTTGTAACCCTAGGAGCT (double strand) [G80C80 (C80G80)]
[2]; 0.5-80 nM DprA, weaker than ssDNA C80, label: 32P end label
  binding result: binds more weakly
